Assays:
[1] = tested on: PA-I promoter activity in reporter strain PA27853/PLL-EGFP; assay: Fluorescence of GFP-PA-I reporter strain PA27853/PLL-EGFP; conditions: opioid agonist 60 μM, HDMEM, up to 9 hours
PAO1 = assay: Biofilm formation assay, PAO1; conditions: PAO1, U-50,488 added at inoculation, overnight
[2] = tested on: pyocyanin (PCN) production in P. aeruginosa PAO1; assay: Pyocyanin assay, PAO1; type: cell-based, Pseudomonas aeruginosa
[3] = tested on: pyocyanin (PCN) production in P. aeruginosa 27853; assay: Pyocyanin assay, 27853; conditions: 27853, overnight in TSB, varying concentrations
[4] = tested on: PA-I expression in P. aeruginosa; assay: In vitro PA-I expression in P. aeruginosa, summary statements; type: cell-based, Pseudomonas aeruginosa; conditions: strains PA27853 and PAO1
[5] = tested on: PA-I protein expression in PAO1; assay: PA-I (PA-IL) protein immunoblot in PAO1; type: cell-based, Pseudomonas aeruginosa; conditions: PAO1, 100 μM U-50,488, cell density 1.8 (OD600 nm)

Substance: trans-3,4-dichloro-N-methyl-N[2-(1-pyrolidinyl)cyclohexyl]benzeneacetamide methanesulfonate
- PA-I expression as judged by fluorescence of the GFP reporter strain [1]: Marked fluorescence
- PA-I expression as judged by fluorescence of the GFP reporter strain ([1]; listed as U-50488): greatest effect on PA-I expression
- biofilm formation (PAO1): enhanced biofilm formation
- onset of PCN production versus cell density ([2]; PAO1, TSB, 200 μM compound): shift in the production of PCN at lower cell densities
- colour of culture after overnight exposure ([2]; PAO1, TSB, 1 mM compound): intensely bright green color
- PCN production (OD520 nm) ([2]; PAO1, overnight in TSB, varying concentrations): dose-dependent effect on PCN production
- PCN production (OD520 nm) [3]: dose-dependent effect on PCN production
- response to express PA-I [4]: robust response
- PA-IL protein expression [5]: increase in PA-IL protein expression

Reference: patent US20070059272A1 (priority 2005, published 2007)
